PubChem BioAssay AID504761 – Drosophila RNAi Screening Center, 2011

Purpose: 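Insect host genes that dengue virus relies on to spread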 (primary screen)
Cell system: D.Mel-2 cells from Drosophila
Reagents: long dsRNA against Drosophila genes
Conditions: infection with dengue virus type 2; dose and infection time not stated
Measurement: 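Cells stained for dengue envelope protein and imaged; percent of infected cells per well on duplicate plates, ranked by infection, with stained nuclei counted for cell number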
Reading the numbers: infection score: higher = more virus-infected cells; cell count: higher = more cells in the well
Rule for the call: 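Low infection ranks in the two replicates (chance level up to 0.065) followed by a retest with a 1.5-fold or larger significant decrease, p below 0.05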
Meaning of the calls: active = confirmed: knock-down lowers infection; inactive = not picked or not confirmed
The screen tested about 22,000 reagents; below is an unselected part of those that have a named target and a result. In the full data, 116 (0.52%) are marked active. 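Calls depend on retest data that are not deposited; infection was ranked per plate without normalising between plates; the unit of the infection score is not given.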 The raw values are shown without normalisation. A number with no mark means an inactive call. Names joined by + are all predicted targets of the reagent. Further read-outs or replicates are left out here. Not stated in the record: the amount of reagent, the time to read-out.

no.	gene	dsRNA	infection score, replicate 1	infection score, replicate 2	cell count, replicate 1
1	CG12078	DRSC08242	3.81	3.62	6119
2	CG8032	DRSC16365	3.91	3.86	1971
3	CG8032	DRSC29586		2.29	
4	Oga	DRSC15901	2.15	1.29	6661
5	CG31522	DRSC12005	2.3	3.32	5868
6	CG31522	DRSC29792	11.8	4.92	6456
7	PSMG1	DRSC12297	9.55	13.9	6188
8	PSMG1	DRSC28532	9.75	15.4	5200
9	CG15734	DRSC19701	9.59	8.42	6445
10	mthl10	DRSC08504	1.63	2.83	6127
11	mthl10	DRSC08505	3.71	1.9	6195
12	CG13445	DRSC09992	1.16	5.71	6145
13	CG13445	DRSC25076	5.06	5.74	6818
14	Actn3	DRSC14106	3.14	7.73	6614
15	CG34427	DRSC09978	4.15	1.43	6097
16	Obp57a	DRSC22047	1.76	2.44	6434
17	Obp57a	DRSC25699	1.94	11.2	6094
18	CG17768 + LSm-4	DRSC02845	31.1	21.8	3383
19	dpr4	DRSC14531	6.3	5.8	5729
20	dpr4	DRSC14929	7.52	3.75	5507
21	mmy	DRSC02002	1.89	5.96	5931
22	Gr98b	DRSC21675	4.6	3.79	6478
23	Cbs	DRSC20553	2.55	1.49	6538
